Values of other authors as cited in US4296032A (priority 1979, dated 1981).

Tested on: β-lactamase
Conditions: known from literature; cited from earlier work

In the case of `CC1(C)S[C@@H]2[C@H](Br)C(=O)N2[C@H]1C(=O)O`, the β-lactamase inhibitor is listed as “β-lactamase inhibitor”.
